Pooled drug test results. Numbers come from NIAID ChemDB, via PubChem.

Shared fields: tests on isolated targets; organism: HIV-1; target: Integrase; measure: IC50

Neighbouring rows are from separate reports. a–b is a range or a potency band. ICn: concentration for n% inhibition.

structure,method,result
O=c1ccn2ccn(CCCc3cccc(Cl)c3)c(=O)c2c1O,ELISA,0.01–0.1 µM
COc1ccc(CNC(=O)/C=C(\O)C(=O)O)cc1,strand transfer,<70 µM
CN(C)C1COCCn2c1nc(C(=O)NCc1ccc(F)cc1)c(O)c2=O,ELISA,<10 µM
CCCCNC(=O)c1cn2ccn(Cc3cccc(Cl)c3)c(=O)c2c(O)c1=O,ELISA,<0.01 µM
CN1C(=O)CN2CCn3c(nc(C(=O)NCc4ccc(F)cc4)c(O)c3=O)C1C2,ELISA,<10 µM
CN(Cc1ccc(OCc2ccc(F)cc2)cc1)C(=O)/C=C(\O)C(=O)O,strand transfer,>70 µM
O=C1c2c(O)c(=O)n(Cc3nccc4ccccc34)c(=O)n2CCN1Cc1ccc(F)cc1,strand transfer,<10 µM
CC(C)Cc1cc(=O)c(O)c2n1CCN(Cc1ccc(Cl)c(Cl)c1)C2=O,ELISA,0.01–0.1 µM
CN1Cn2c(nc(C(=O)NCc3ccc(F)cc3)c(O)c2=O)C1(C)C,ELISA,<10 µM
O=C(O)CNC(=O)/C(O)=C/C(=O)N(Cc1ccc(F)cc1)Cc1ccc(F)cc1,strand transfer,<70 µM
CC(C)n1c(=O)c(O)c2n(c1=O)C(CCN1CCOCC1)CN(Cc1ccc(F)cc1)C2=O,strand transfer,<10 µM
CC(C)COCc1cc(=O)c(O)c2n1CCN(Cc1ccc(Cl)c(Cl)c1)C2=O,ELISA,0.01–0.1 µM
CC(NC(=O)/C=C(\O)C(=O)O)c1ccc(F)cc1,strand transfer,>70 µM
CC(C)C(=O)Nc1cn2ccn(Cc3ccc(F)cc3)c(=O)c2c(O)c1=O,ELISA,0.01–0.1 µM
O=C(NCc1ccc(F)cc1)c1nc2n(c(=O)c1O)CN1CCSC21,ELISA,<10 µM
O=C(NCc1cccc2ccccc12)c1cn2c(c(O)c1=O)C(=O)N(Cc1cccc(Cl)c1)CC2,ELISA,<0.01 µM
CC1(C)c2nc(C(=O)NCc3ccc(F)cc3)c(O)c(=O)n2CCN1Cc1cscn1,ELISA,<10 µM
CC(C)n1c(=O)c(O)c2n(c1=O)CCN(Cc1ccccc1C#N)C2=O,strand transfer,<10 µM
Cc1cn(Cc2ccc(F)cc2)c(=O)c2c(O)c(=O)c(C(=O)C(C)(C)C)cn12,ELISA,0.01–0.1 µM
CN1C(C)(C)CC(n2c(=O)c(O)c3n(c2=O)CCN(Cc2ccc(F)cc2)C3=O)CC1(C)C,strand transfer,<10 µM
CN(Cc1ccccc1OCc1ccc(F)cc1)C(=O)/C=C(\O)C(=O)O,strand transfer,<70 µM

The first 3 rows once more:

structure,method,result
O=c1ccn2ccn(CCCc3cccc(Cl)c3)c(=O)c2c1O,ELISA,0.01–0.1 µM
COc1ccc(CNC(=O)/C=C(\O)C(=O)O)cc1,strand transfer,<70 µM
CN(C)C1COCCn2c1nc(C(=O)NCc1ccc(F)cc1)c(O)c2=O,ELISA,<10 µM